Measured values from several laboratories, pooled; numbers as filed in NIAID ChemDB.

All rows: growth or infection tests; agent: Aspergillus clavatus

A number after MIC or MFC names an inhibition level or a share of isolates. An empty or dashed field is not shown. Lines come from different laboratories, so protocols vary.

| SMILES | strain | method | read-out | value |
|---|---|---|---|---|
| Cc1nn(-c2ccccc2)c2c1C(c1ccc(F)cc1)c1c(nc(=O)[nH]c1N)O2 | MTCC 1323 | - | MIC | 500 µg/mL |
| COc1cc(C=NNC(=O)c2cnc3c(ccc4[nH]c(Cl)cc(C)c43)c2=O)ccc1O | - | broth dilution | MIC | 1000 µg/mL |
| Cc1nn(-c2ccccc2)c2c1C(c1cccc(Cl)c1)C(C#N)=C(N)O2 | MTCC 1323 | - | MIC | >1000 µg/mL |
| COc1cc(/C=C2\SC(c3ccc(F)cc3)N(NC(=O)c3ccc(-n4c(-c5ccc(C)cc5)nc5ccccc5c4=O)cc3)C2=O)cc(OC)c1OC | MTCC 1323 | - | MIC100 | 1000 µg/mL |
| O=[N+]([O-])c1ccccc1NC(=S)Nc1nc(N2CCN(c3ccccc3)CC2)c2ccccc2n1 | MTCC 1323 | agar / visual reading | MIC | 6.25 µg/mL |
| Cc1ccc(C2c3c(nc(=S)[nH]c3N)Oc3c2c(C)nn3-c2ccccc2)cc1 | MTCC 1323 | - | MIC | >1000 µg/mL |
| Cc1ccc(-c2nc3ccccc3c(=O)n2-c2ccc(C(=O)NN3C(=O)/C(=C/c4ccc(F)cc4)SC3c3ccc(F)cc3)cc2)cc1 | MTCC 1323 | - | MIC100 | 100 µg/mL |
| O=C(NN1C(=O)/C(=C/c2cc3ccccc3nc2Cl)N=C1c1ccccc1)c1ccncc1 | MTCC 1323 | broth dilution | MIC | 100 µg/mL |
| COc1ccc(CN2CCN(c3nc(Cl)nc(NC4CC4)n3)CC2)c(OC)c1OC | MTCC 1323 | agar | MIC | 25 µg/mL |
| COc1ccc(C2C(C#N)=C(N)Oc3c2c(C)nn3-c2ccccc2)cc1 | MTCC 1323 | - | MIC | 1000 µg/mL |
| Cc1ccc(-c2nc3ccccc3c(=O)n2-c2ccc(C(=O)NN3C(=O)CSC3c3ccc(F)cc3)cc2)cc1 | MTCC 1323 | - | MIC100 | 1000 µg/mL |
| Cc1cc(Cl)[nH]c2ccc3c(=O)c(C(=O)NN4C(=O)C(Cl)C4c4ccccc4Cl)cnc3c12 | - | broth dilution | MIC | 250 µg/mL |
| O=C(Cc1ccccc1)NN1C(=O)/C(=C/c2cc3ccccc3nc2Cl)N=C1c1ccccc1 | MTCC 1323 | broth dilution | MIC | 500 µg/mL |
| COc1cc(C2C(Cl)C(=O)N2NC(=O)c2cnc3c(ccc4[nH]c(Cl)cc(C)c43)c2=O)ccc1O | - | broth dilution | MIC | 500 µg/mL |
| N#CSc1ccc2nc(NC(=O)CN3C(=O)S/C(=C/c4cccc(-c5ccco5)c4)C3=O)sc2c1 | MTCC 1323 | broth dilution / visual reading | MIC | 250 µg/mL |
| Cc1ccc(-c2nc3ccccc3c(=O)n2-c2ccc(C(=O)NN3C(=O)/C(=C/c4cccc(Br)c4)SC3c3ccc(F)cc3)cc2)cc1 | MTCC 1323 | - | MIC100 | 1000 µg/mL |
| COc1ccccc1C1C(Cl)C(=O)N1NC(=O)c1cnc2c(ccc3[nH]c(Cl)cc(C)c32)c1=O | - | broth dilution | MIC | >1000 µg/mL |
| CCN1CCN(c2nc(NC(=S)N3CCN(C)CC3)nc3ccccc23)CC1 | MTCC 1323 | agar / visual reading | MIC | 3.12 µg/mL |
| N#CSc1ccc2nc(NC(=O)CN3C(=O)S/C(=C/c4ccc(F)cc4)C3=O)sc2c1 | MTCC 1323 | broth dilution / visual reading | MIC | 1000 µg/mL |
| S=C(Nc1cccc(Cl)c1)Nc1nc(N2CCN(c3ccccc3)CC2)c2ccccc2n1 | MTCC 1323 | agar / visual reading | MIC | 3.12 µg/mL |
| COc1ccc(/C=C2\SC(c3ccc(F)cc3)N(NC(=O)c3ccc(-n4c(-c5ccc(C)cc5)nc5ccccc5c4=O)cc3)C2=O)c(O)c1 | MTCC 1323 | - | MIC100 | 500 µg/mL |
| N#CSc1ccc2nc(NC(=O)CN3C(=O)S/C(=C/c4ccc(O)cc4)C3=O)sc2c1 | MTCC 1323 | broth dilution / visual reading | MIC | >1000 µg/mL |
| CC(=O)N1CCN(c2nc(Cl)nc(NC3CC3)n2)CC1 | MTCC 1323 | agar | MIC | 100 µg/mL |
| S=C(Nc1ccccc1)Nc1nc(N2CCN(c3ccccc3)CC2)c2ccccc2n1 | MTCC 1323 | agar / visual reading | MIC | 400 µg/mL |
| COc1ccc(/C=C2\SC(c3ccc(F)cc3)N(NC(=O)c3ccc(-n4c(-c5ccc(C)cc5)nc5ccccc5c4=O)cc3)C2=O)cc1 | MTCC 1323 | - | MIC100 | 1000 µg/mL |
| Cc1nn(-c2ccccc2)c2c1C(c1ccc(O)cc1)c1c(nc(=O)[nH]c1N)O2 | MTCC 1323 | - | MIC | >1000 µg/mL |
| O=C(NN1C(=O)/C(=C/c2cc3ccccc3nc2Cl)N=C1c1ccccc1)c1cccc(O)c1 | MTCC 1323 | broth dilution | MIC | 500 µg/mL |
| CC(=O)N1CCN(c2nc(NCCNc3ncnc4c(Br)cc(Br)cc34)nc(NC3CC3)n2)CC1 | MTCC 1323 | agar | MIC | 50 µg/mL |
| COc1ccc(C2c3c(nc(=S)[nH]c3N)Oc3c2c(C)nn3-c2ccccc2)cc1 | MTCC 1323 | - | MIC | >1000 µg/mL |
| CCN1CCN(c2nc(NN=C3SCC(=O)N3c3ccccc3Cl)nc3ccccc23)CC1 | MTCC 1323 | agar / visual reading | MIC | 3.12 µg/mL |
| Cc1cc(Cl)[nH]c2ccc3c(=O)c(C(=O)NN=Cc4cccc([N+](=O)[O-])c4O)cnc3c12 | - | broth dilution | MIC | 500 µg/mL |
| N#CSc1ccc2nc(NC(=O)CN3C(=O)S/C(=C/c4ccccc4Cl)C3=O)sc2c1 | MTCC 1323 | broth dilution / visual reading | MIC | 500 µg/mL |
| CCN1CCN(c2nc(NCCNc3ncnc4c(Br)cc(Br)cc34)nc(NC3CC3)n2)CC1 | MTCC 1323 | agar | MIC | 100 µg/mL |
| O=C(NN1C(=O)/C(=C/c2cc3ccccc3nc2Cl)N=C1c1ccccc1)c1cccc([N+](=O)[O-])c1 | MTCC 1323 | broth dilution | MIC | 100 µg/mL |
| Cc1nn(-c2ccccc2)c2c1C(c1ccc(O)cc1)C(C#N)=C(N)O2 | MTCC 1323 | - | MIC | 1000 µg/mL |
| O=C(NN1C(=O)/C(=C/c2cc3ccccc3nc2Cl)N=C1c1ccccc1)c1ccc(F)cc1 | MTCC 1323 | broth dilution | MIC | 100 µg/mL |
| COc1ccc(/C=C2/SC(=O)N(CC(=O)Nc3nc4ccc(SC#N)cc4s3)C2=O)cc1 | MTCC 1323 | broth dilution / visual reading | MIC | 1000 µg/mL |
| Cc1nn(-c2ccccc2)c2c1C(c1cccc(Br)c1)c1c(nc(=O)[nH]c1N)O2 | MTCC 1323 | - | MIC | 1000 µg/mL |

A second listing of 4 rows from above:

SMILES,strain,method,read-out,value
CCN1CCN(c2nc(NN=C3SCC(=O)N3c3ccccc3Cl)nc3ccccc23)CC1,MTCC 1323,agar / visual reading,MIC,3.12 µg/mL
Cc1cc(Cl)[nH]c2ccc3c(=O)c(C(=O)NN=Cc4cccc([N+](=O)[O-])c4O)cnc3c12,-,broth dilution,MIC,500 µg/mL
O=C(NN1C(=O)/C(=C/c2cc3ccccc3nc2Cl)N=C1c1ccccc1)c1cccc(O)c1,MTCC 1323,broth dilution,MIC,500 µg/mL
Cc1cc(Cl)[nH]c2ccc3c(=O)c(C(=O)NN4C(=O)C(Cl)C4c4ccccc4Cl)cnc3c12,-,broth dilution,MIC,250 µg/mL